According to paper PMC12587552, “A nitrogen-containing diphyllin derivative C156-P1 exhibited broad-spectrum antiviral activity against Flaviviridae viruses by preventing endosomal acidification” (Antimicrobial Agents and Chemotherapy, 2025):

Test system: DENV-2

COc1cc2c(OCC#N)c3c(c(-c4ccc5c(c4)OCO5)c2cc1OC)C(=O)OC3 [Compound C156-P1]
Antiviral activity against DENV-2 relative to parental compound DP (fold greater) (A549 cells): ~300 fold | SIs, bound stated (DENV-2 in Vero, HUVEC, and Huh7 cells): > 100
